Experimental findings from article PMC3228729, “Localization of ASV Integrase-DNA Contacts by Site-Directed Crosslinking and their Structural Analysis” are described below.

This data set addresses T1, ASV integrase WT (avian sarcoma virus) (UniProt P03354).
T1 sequence (looked up, limits assumed): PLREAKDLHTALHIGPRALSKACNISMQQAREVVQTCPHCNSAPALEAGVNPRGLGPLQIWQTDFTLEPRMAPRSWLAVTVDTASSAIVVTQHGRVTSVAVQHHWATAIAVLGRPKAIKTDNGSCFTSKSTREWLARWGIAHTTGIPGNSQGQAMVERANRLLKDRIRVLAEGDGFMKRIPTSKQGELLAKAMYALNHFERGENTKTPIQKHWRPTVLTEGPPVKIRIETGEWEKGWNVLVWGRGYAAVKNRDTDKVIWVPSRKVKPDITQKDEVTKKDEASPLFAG
The data set is described as follows: photocrosslinking. Conditions: DNA-borne diazirine; 5-aminouridine replacing T8 of strand 3, carrying aryl diazirine; Photocrosslinking: 40 mM HEPES pH 6.5, 150 mM NaCl, 5% glycerol, 0 C, 10 uM IN, 0.05 uM DNA; disulfide: Buffer 1 adjusted to 250-300 mM NaCl, pH 7.5, on ice; recombinant protein; label: 32P.

Construct, isoform or probe ends are uncertain for at least one entry. Whether high values mean tight binding is not given here for every scale. Where a protein sequence is shown, tags need not be part of it.

In the case of “AATGTAGTCTTATGCAATACTC (double strand) [NH2-3.8 linear]”, the binding signal (fraction of NH2-3.11 crosslinking) is below 0.5.
